According to PMC12057359, “Inhibitory effect of copper chelators on the budding in Candida albicans” (Antimicrobial Agents and Chemotherapy, 2025):
Some ranges recur; such a range may be that of the whole group of compounds.

Tested on: C. albicans JCM1542
Test: iHOPE antimicrobial microdilution assay (turbidity OD600)
Assay type: cell-based, Candida albicans
Conditions: C. albicans JCM1542 antifungal activity

| Compound | fold lower activity than 1 |
| --- | --- |
| [C-]#[N+][C@@H](C)CC(=O)Nc1ccc(NC(=O)C[C@H](C)[N+]#[C-])cc1 [13b] | 2–5 fold |
| [C-]#[N+][C@H](C)CC(=O)Nc1cccc(NC(=O)C[C@@H](C)[N+]#[C-])c1 [14a] | 2–5 fold |
| [C-]#[N+][C@@H](C)CC(=O)Nc1cccc(NC(=O)C[C@H](C)[N+]#[C-])c1 [14b] | 2–5 fold |
